Results from publication PMC11890623, “Pseudomonas aeruginosa acyl-CoA dehydrogenases and structure-guided inversion of their substrate specificity” (Nature Communications, 2025).

The chains behind the UniProt entries cited, without tags or fusion partners. Residues count along the entry.
UniProt Q9I610, 1-592 limits assumed: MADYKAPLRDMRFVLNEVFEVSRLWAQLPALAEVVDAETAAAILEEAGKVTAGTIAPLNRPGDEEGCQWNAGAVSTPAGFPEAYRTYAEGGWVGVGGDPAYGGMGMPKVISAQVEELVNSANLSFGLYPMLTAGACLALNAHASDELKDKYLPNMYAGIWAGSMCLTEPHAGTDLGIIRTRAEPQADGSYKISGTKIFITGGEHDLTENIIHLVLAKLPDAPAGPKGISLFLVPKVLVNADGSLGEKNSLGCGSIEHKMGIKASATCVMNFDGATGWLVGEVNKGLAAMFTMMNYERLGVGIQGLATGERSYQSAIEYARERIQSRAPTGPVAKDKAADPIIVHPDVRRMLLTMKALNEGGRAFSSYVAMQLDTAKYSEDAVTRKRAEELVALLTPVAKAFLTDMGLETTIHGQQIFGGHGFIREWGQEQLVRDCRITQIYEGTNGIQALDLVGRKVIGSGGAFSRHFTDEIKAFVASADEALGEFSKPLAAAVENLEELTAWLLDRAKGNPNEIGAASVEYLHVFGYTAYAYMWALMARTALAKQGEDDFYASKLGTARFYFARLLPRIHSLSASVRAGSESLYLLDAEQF
UniProt Q9I612, 1-601 limits assumed: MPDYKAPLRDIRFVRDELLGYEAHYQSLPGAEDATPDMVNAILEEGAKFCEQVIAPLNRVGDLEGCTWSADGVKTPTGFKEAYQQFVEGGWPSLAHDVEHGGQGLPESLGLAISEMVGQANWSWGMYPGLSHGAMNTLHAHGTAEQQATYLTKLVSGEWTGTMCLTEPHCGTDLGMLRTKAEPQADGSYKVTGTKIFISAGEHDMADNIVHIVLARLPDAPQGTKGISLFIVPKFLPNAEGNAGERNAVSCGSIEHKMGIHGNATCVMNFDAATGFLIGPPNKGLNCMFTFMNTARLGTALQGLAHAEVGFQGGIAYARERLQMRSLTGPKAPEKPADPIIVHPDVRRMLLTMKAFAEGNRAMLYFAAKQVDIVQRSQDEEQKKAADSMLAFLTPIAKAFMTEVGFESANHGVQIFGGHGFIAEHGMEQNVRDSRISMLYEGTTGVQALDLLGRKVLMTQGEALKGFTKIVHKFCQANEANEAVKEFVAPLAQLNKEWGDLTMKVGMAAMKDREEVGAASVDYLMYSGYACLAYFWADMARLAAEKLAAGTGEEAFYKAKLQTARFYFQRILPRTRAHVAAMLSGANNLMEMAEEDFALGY

How the values were obtained:
FadE2 = FadE2 (Pseudomonas aeruginosa, UniProt Q9I610); assay: purified enzyme dehydrogenase assay (ferrocenium reduction) with C8-CoA substrate; type: biochemical; conditions: tested form: TFA
FadE1 = FadE1 (Pseudomonas aeruginosa, UniProt Q9I612); assay: as above; type: biochemical; conditions: tested form: TFA

## C=C(CCCCC)CC(=O)SCCNC(=O)CCNC(=O)[C@H](O)C(C)(C)COP(=O)(O)OP(=O)(O)OC[C@H]1O[C@@H](n2cnc3c(N)ncnc32)[C@H](O)[C@@H]1OP(=O)(O)O
FadE2
  IC50: 2000 nM
FadE1
  IC50: 1400 nM
